Test results published in US11325916B1, “Spiropyrrolidine derived antiviral agents” (priority 2021, dated 2022).

How the values were obtained:
[1] = system: 229E human corona virus (hCoV); assay: 229E Live Virus Assay (MRC-5 cells, CPE, ATPlite readout); conditions: read-out: 229E EC50, hCoV-229E MOI 0.05, 6 days at 34° C., duplicate, ranges defined in μM
Protocol: MRC-5 cells, (a diploid cell culture line composed of fibroblasts, originally developed from the lung tissue of a aborted fetus), were used for the culturing of 229E human corona virus (hCoV). Flasks were inoculated with hCoV-229E and viral stocks were collected once cytopathic effect (CPE) was greater than 70%. Viral stocks in Growth Media (EMEM, 1% Penn/Strep, 1% nonessential amino acids, 10% heat-inactivated FBS) plus 5% glycerol were snap frozen using liquid nitrogen and stored at −80° C. Viral stock titers were quantified by a TCID50 (50% median tissue culture infectious dose) assay, as described elsewhere.
384-well black cell-culture-treated plastic clear-bottom plates are used in this assay. Using an ECHO liquid dispenser, 3-fold serial dilutions of control and test compounds suspended in DMSO are added to the plate wells in duplicate in a total volume of 125 nL per well. […] The control wells with cells but no virus are given an additional 12.5 μL of growth media containing an equal quantity of glycerol as those wells receiving the viral stock in order to keep consistent in media and volume conditions. […] Following the 6-day incubation period, the plates are read using ATPlite (12.5 μL added per well), which quantifies the amount of ATP (a measure of cell health) present in each well. Assay plates are read using an Envision luminometer. […]

[2] = target: SARS-CoV-2 3CL-protease (Severe acute respiratory syndrome coronavirus 2 (2019-nCoV) (SARS-CoV-2), UniProt P0DTD1); assay: SARS-CoV-2 3C-Like (3CL) Protease Fluorescence Assay (FRET); conditions: recombinant SARS-CoV-2 3CL-protease 10 nM, FRET peptide substrate, 30 min preincubation at RT, duplicate; ranges defined in μM
Protocol: Biological Activity SARS-CoV-2 3C-Like (3CL) Protease Fluorescence Assay (FRET):
Recombinant SARS-CoV-2 3CL-protease was expressed and purified. TAMIRA-SITSAVLQSGFRKMK-Dabcyl-OH peptide 3CLpro substrate was synthesized. Black, low volume, round-bottom, 384 well microplates were used. In a typical assay, 0.85 μL of test compound was dissolved in DMSO then incubated with SARS-CoV-2 3CL-protease (10 nM) in 10 μL assay buffer (50 mM HEPES [pH 7.5], 1 mM DTT, 0.0100 BSA, 0.01% Triton-X 100) for 30 min at RT. Next, 10 μL of 3CL-protease substrate (40 μM) in assay buffer was added and the assays were monitored continuously for 1 h in an Envision multimode plate reader operating in fluorescence kinetics mode with excitation at 540 nm and emission at 580 nm at RT. No compound (DMSO only) and no enzyme controls were routinely included in each plate. All experiments were run in duplicate. Data Analysis: SARS-CoV-2 3CL-protease enzyme activity was measured as initial velocity of the linear phase (RFU/s) and normalized to controlled samples DMSO (10000 activity) and no enzyme (000 activity) to determine percent residual activity at various concentrations of test compounds (0-10 μM). Data were fitted to normalized activity (variable slope) versus concentration fit in GraphPad Prism 7 to determine IC50. […]

CC(C)C[C@@H](C(=O)N1C[C@]2(C[C@H]1C#N)C(=O)Nc1ccccc12)N(C)C(=O)[C@H](CC(C)(C)C)N(C)C(=O)c1cc2c(F)cc(F)c(F)c2[nH]1
EC50 [1]: 0.1 to 1 µM
IC50 [2]: < 0.1 µM
